From patent US8574608B2, “Bactericidal silver surfactant delivery into coating and polymer compositions” (Eastern Michigan Universtity, priority 2007, dated 2013)
Values joined by “and” are separate entries in the source; they are usually repeats but may differ in a detail not shown here. Identical values can stand only once.

What was measured:
[1] = test system: E. coli ATCC 11229; experiment: Survival of E. coli on silver surfactant polyurethane coated lantern slides; details: for CFU/mL of E. coli at 0 hours / CFU/mL of E. coli at 24 hours: PU coated lantern slide, 2 runs
[2] = test system: S. aureus; experiment: PU composition containing AgAOT used to challenge S. aureus; details: 24 h contact time; for surviving bacteria (growth), S. aureus: PU slab
[3] = test system: Staphylococcus aureus ATCC 6538; experiment: S. aureus challenge by household surfaces sprayed with AgAOT; details: for CFU/mL, Avg / CFU/mL, Run #1-#2: sprayed 0.06% silver solution
[4] = 24 hour exposure, lantern slide coatings
[5] = 0.01% AgAOT substituted for NaAOT, 0.00061% weight silver in coating
[6] = 0.5% AgAOT substituted for NaAOT, 0.031% weight silver in coating
[7] = 1.0% AgAOT substituted for NaAOT, 0.061% weight silver in coating
[8] = 3.0% AgAOT substituted for NaAOT, 0.18% weight silver in coating
[9] = 10.0% AgAOT substituted for NaAOT, 0.61% weight silver in coating

Substance: silver bis[2-ethylhexyl]sulfosuccinate
- level of substitution resulting in complete killing of the E. coli [1, 4]: ≥ 0.5 % weight of silver bis[2-ethylhexyl]sulfosuccinate relative to the 30% NaAOT control weight
- level resulting in complete killing of the E. coli [1, 4]: ≥ 0.031 % Ag^+ relative to coating weight
- CFU/mL of E. coli at 0 hours [1, 5]: 5.4 × 10^5 CFU/mL and 5.5 × 10^5 CFU/mL
- CFU/mL of E. coli at 24 hours [1, 5]: 8.4 × 10^3 CFU/mL and 5.9 × 10^6 CFU/mL
- CFU/mL of E. coli at 0 hours ([1]; 0.1% AgAOT substituted for NaAOT, 0.0061% weight silver in coating): 4.1 × 10^5 CFU/mL and 4.7 × 10^5 CFU/mL
- CFU/mL of E. coli at 0 hours [1, 6]: 4.1 × 10^5 CFU/mL and 4.8 × 10^5 CFU/mL
- CFU/mL of E. coli at 24 hours [1, 6]: 0; 0 CFU/mL
- CFU/mL of E. coli at 0 hours [1, 7]: 4.4 × 10^5 CFU/mL and 5.9 × 10^5 CFU/mL
- CFU/mL of E. coli at 24 hours [1, 7]: 0; 0 CFU/mL
- CFU/mL of E. coli at 0 hours [1, 8]: 7.5 × 10^5 CFU/mL and 4.7 × 10^5 CFU/mL
- CFU/mL of E. coli at 24 hours [1, 8]: 0; 0 CFU/mL
- CFU/mL of E. coli at 0 hours [1, 9]: 4.0 × 10^5 CFU/mL and 3.9 × 10^5 CFU/mL
- CFU/mL of E. coli at 24 hours [1, 9]: 0; 0 CFU/mL
- silver level giving complete inhibition ([2]; AgAOT incorporated into PU): 0.30 % w/w silver
- surviving bacteria (growth), S. aureus ([2]; 0.01 weight % Ag in PU composition): +
- surviving bacteria (growth), S. aureus ([2]; 0.03 weight % Ag in PU composition): +
- surviving bacteria (growth), S. aureus ([2]; 0.10 weight % Ag in PU composition): +
- surviving bacteria (growth), S. aureus ([2]; 0.30 weight % Ag in PU composition): −
- surviving bacteria (growth), S. aureus ([2]; 1.0 weight % Ag in PU composition): −
- surviving bacteria (growth), S. aureus ([2]; 3.0 weight % Ag in PU composition): −
- killing of S. aureus ([3]; each of the surfaces (metal plate, wall paper, vinyl tile), 24 h contact time): Complete killing
- CFU/mL, Avg ([3]; metal plate, 0 h contact time): 3.90E+04 CFU/mL
- CFU/mL, Avg ([3]; metal plate, 24 h contact time): 0.00E+00 CFU/mL
- CFU/mL, Run #1-#2 ([3]; metal plate, 24 h contact time): 0.00E+00 CFU/mL
- CFU/mL, Avg ([3]; vinyl tile, 0 h contact time): 1.25E+05 CFU/mL
- CFU/mL, Avg ([3]; vinyl tile, 24 h contact time): 0.00E+00 CFU/mL
- CFU/mL, Run #1-#2 ([3]; vinyl tile, 24 h contact time): 0.00E+00 CFU/mL
- CFU/mL, Avg ([3]; wall-paper, 0 h contact time): 9.75E+04 CFU/mL
- CFU/mL, Avg ([3]; wall-paper, 24 h contact time): 0.00E+00 CFU/mL
- CFU/mL, Run #1-#2 ([3]; wall-paper, 24 h contact time): 0.00E+00 CFU/mL
